Cytotoxicity data for 1 compound are collected here from patent US20250154457A1, “T-CELLS FOR ANTI-HIV CAR-T THERAPY AND METHODS OF USE” (City of Hope, priority 2021, published 2025).

This data set deals with 8e5.GFP. Conditions: 6TG treated vs non-treated enrichment anti-HIV CAR T-cells, n=3.

On to `Nc1nc2nc[nH]c2c(=S)[nH]1` [6TG, 6-thioguanine], for which the cytotoxicity result is reported as “no difference in cytotoxicity”.
